Results deposited as PubChem BioAssay AID504761 (Drosophila RNAi Screening Center, 2011).

Assay: 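Genome-wide fly cell screen for genes dengue virus requires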 (primary screen)
Cells: D.Mel-2 cells from Drosophila
Reagent: long dsRNA against Drosophila genes
Conditions: infection with dengue virus type 2; dose and infection time not stated
Read-out: 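Cells stained for dengue envelope protein and imaged; percent of infected cells per well on duplicate plates, ranked by infection, with stained nuclei counted for cell number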
Direction: infection score: higher = more virus-infected cells; cell count: higher = more cells in the well
Active means: 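Very low infection ranking in both replicate wells (chance probability at most 0.065), then a retest showing infection dropped 1.5-fold or more at p below 0.05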
Calls: active = confirmed: knock-down lowers infection; inactive = not picked or not confirmed
In all, the deposit lists about 22,000 reagents; shown is an unselected part of those that have a named target and a result. In the full data, 116 (0.52%) were called active. 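Calls depend on retest data that are not deposited; infection was ranked per plate without normalising between plates; the unit of the infection score is not given.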 Raw values are not corrected between plates. A plus sign joins genes that one reagent is predicted to hit. Not given: the amount of reagent, the time to read-out.

CG11598 [DRSC14331]
- infection score, replicate 1: 5.49
- infection score, replicate 2: 3.95
- cell count, replicate 1: 6306
- cell count, replicate 2: 6449
- Call: inactive

CG12012 [DRSC08220]
- infection score, replicate 1: 1.04
- infection score, replicate 2: 4.03
- cell count, replicate 1: 5986
- cell count, replicate 2: 5932
- Call: inactive

CG15308 [DRSC17995]
- infection score, replicate 1: 5.07
- infection score, replicate 2: 16.6
- cell count, replicate 1: 6000
- cell count, replicate 2: 5286
- Call: inactive

CG33458 [DRSC22891]
- infection score, replicate 1: 2.25
- infection score, replicate 2: 4.42
- cell count, replicate 1: 5899
- cell count, replicate 2: 6216
- Call: inactive

Cpr67Fa1 + Cpr67Fa2 [DRSC28050]
- infection score, replicate 1: 14.7
- infection score, replicate 2: 8.24
- cell count, replicate 1: 2497
- cell count, replicate 2: 6101
- Call: inactive

Dredd [DRSC18461]
- infection score, replicate 1: 3.13
- infection score, replicate 2: 7.89
- cell count, replicate 1: 6903
- cell count, replicate 2: 6880
- Call: inactive

CG11710 [DRSC20485]
- infection score, replicate 1: 1.39
- infection score, replicate 2: 3.74
- cell count, replicate 1: 5695
- cell count, replicate 2: 1177
- Call: inactive

CG11710 [DRSC29756]
- infection score, replicate 1: 2.33
- infection score, replicate 2: 2.4
- cell count, replicate 1: 6553
- cell count, replicate 2: 6367
- Call: inactive

Elp3 [DRSC00448]
- infection score, replicate 1: 4
- infection score, replicate 2: 14.4
- cell count, replicate 1: 6821
- cell count, replicate 2: 5814
- Call: inactive

CG8468 [DRSC07190]
- infection score, replicate 1: 5.44
- infection score, replicate 2: 10.3
- cell count, replicate 1: 7083
- cell count, replicate 2: 6741
- Call: inactive

CG8468 [DRSC26347]
- infection score, replicate 1: 4.15
- infection score, replicate 2: 5.41
- cell count, replicate 1: 6138
- cell count, replicate 2: 6231
- Call: inactive

Rab21 [DRSC20968]
- infection score, replicate 1: 1.02
- infection score, replicate 2: 1.24
- cell count, replicate 1: 5705
- cell count, replicate 2: 5728
- Call: inactive

Rab21 [DRSC28617]
- infection score, replicate 1: 19.6
- infection score, replicate 2: 14.9
- cell count, replicate 1: 5919
- cell count, replicate 2: 5643
- Call: inactive

Dh31-R [DRSC06669]
- infection score, replicate 1: 28
- infection score, replicate 2: 1.39
- cell count, replicate 1: 1937
- cell count, replicate 2: 789
- Call: inactive

Dh31-R [DRSC23417]
- infection score, replicate 1: 4.42
- infection score, replicate 2: 6.33
- cell count, replicate 1: 6356
- cell count, replicate 2: 6242
- Call: inactive

Art6 [DRSC16583]
- infection score, replicate 1: 1.93
- infection score, replicate 2: 1
- cell count, replicate 1: 6574
- cell count, replicate 2: 6599
- Call: inactive

CG13018 [DRSC06274]
- infection score, replicate 1: 6.91
- infection score, replicate 2: 15.5
- cell count, replicate 1: 6351
- cell count, replicate 2: 6006
- Call: inactive

CG4712 [DRSC06882]
- infection score, replicate 1: 11.5
- infection score, replicate 2: 5.97
- cell count, replicate 1: 5875
- cell count, replicate 2: 6229
- Call: inactive

Alp1 [DRSC11781]
- infection score, replicate 1: 9.87
- infection score, replicate 2: 14.7
- cell count, replicate 1: 6866
- cell count, replicate 2: 6306
- Call: inactive

La [DRSC03358]
- infection score, replicate 2: 2.67
- cell count, replicate 1: 595
- cell count, replicate 2: 6741
- Call: inactive

IKKepsilon [DRSC03550]
- infection score, replicate 1: 2.83
- infection score, replicate 2: 9.43
- cell count, replicate 1: 6744
- cell count, replicate 2: 5557
- Call: inactive

CG3769 [DRSC02723]
- infection score, replicate 2: 8.4
- cell count, replicate 1: 537
- cell count, replicate 2: 3560
- Call: inactive

su(Hw) [DRSC17074]
- infection score, replicate 1: 7.75
- infection score, replicate 2: 10.3
- cell count, replicate 1: 6513
- cell count, replicate 2: 6405
- Call: inactive

CG6026 [DRSC15950]
- infection score, replicate 1: 10.2
- infection score, replicate 2: 2.26
- cell count, replicate 1: 3287
- cell count, replicate 2: 6680
- Call: inactive

nerfin-1 [DRSC08729]
- infection score, replicate 1: 2.76
- infection score, replicate 2: 1.09
- cell count, replicate 1: 6273
- cell count, replicate 2: 6151
- Call: inactive

CG5096 [DRSC02813]
- infection score, replicate 1: 16.9
- infection score, replicate 2: 3.13
- cell count, replicate 1: 6000
- cell count, replicate 2: 5806
- Call: inactive

Prx3 [DRSC15883]
- infection score, replicate 1: 9.5
- infection score, replicate 2: 12.3
- cell count, replicate 1: 6229
- cell count, replicate 2: 6458
- Call: inactive

Prx3 [DRSC29107]
- infection score, replicate 1: 0.68
- infection score, replicate 2: 12
- cell count, replicate 1: 590
- cell count, replicate 2: 2581
- Call: inactive

Laid out differently: entries from further up
IKKepsilon [DRSC03550] | infection score, replicate 1 = 2.83; infection score, replicate 2 = 9.43; cell count, replicate 1 = 6744; cell count, replicate 2 = 5557; Call = inactive
CG3769 [DRSC02723] | infection score, replicate 2 = 8.4; cell count, replicate 1 = 537; cell count, replicate 2 = 3560; Call = inactive
su(Hw) [DRSC17074] | infection score, replicate 1 = 7.75; infection score, replicate 2 = 10.3; cell count, replicate 1 = 6513; cell count, replicate 2 = 6405; Call = inactive
CG6026 [DRSC15950] | infection score, replicate 1 = 10.2; infection score, replicate 2 = 2.26; cell count, replicate 1 = 3287; cell count, replicate 2 = 6680; Call = inactive
nerfin-1 [DRSC08729] | infection score, replicate 1 = 2.76; infection score, replicate 2 = 1.09; cell count, replicate 1 = 6273; cell count, replicate 2 = 6151; Call = inactive
